Reference: PMC6468590, “Novel Flavivirus Antiviral That Targets the Host Nuclear Transport Importin α/β1 Heterodimer” (Cells, 2019)

Biological target: His6-DENV2 (TSV101) NS5 (dengue virus 2 (TSV101))
Experiment: AlphaScreen or HTRF

## prebound His6-IMPα/biotinylated-IMPβ1 heterodimer (from UniProt P52293 1-529; P70168 1-876) (complex)
  pKd: 9.10

pKd: −log10 of the molar value.
